A mixed list of measured activities; the numbers were collected in NIAID ChemDB.

Common to all: growth or infection tests; organism: Candida tropicalis; read-out: MIC

An empty or dashed field is not shown. Conditions beyond the fields shown may differ between rows.

{"smiles": "CCC(C)CC(C)CCCCCCCCC(=O)N[C@H]1C[C@@H](O)[C@H](NCCN)NC(=O)[C@@H]2[C@@H](O)CCN2C(=O)[C@H]([C@H](O)CCN)NC(=O)[C@H]([C@H](O)[C@@H](O)c2ccc(O)cc2)NC(=O)[C@@H]2C[C@@H](O)CN2C(=O)[C@H]([C@@H](C)O)NC1=O", "strain or isolate": "MY1124", "result": "0.25 µg/mL"}
{"smiles": "CCOC(=O)C1C(=O)C=C(c2ccc(Br)cc2)CC1c1ccc(C2CC(c3ccc(Br)cc3)=CC(=O)C2C(=O)OCC)cc1", "strain or isolate": "Clinical isolate", "result": "25 µg/mL"}
{"smiles": "O=C(CCn1ccnc1)c1ccc(Cl)cc1", "strain or isolate": "RTCC 1095", "method": "broth dilution", "result": ">64 µg/mL"}
{"smiles": "COC(=O)c1ccc(N2C(=O)C(OC(C)=O)C2c2ccc(OC)cc2)cc1", "strain or isolate": "CP/K92", "result": "33.87 µM"}
{"smiles": "CN1CCC[C@H]1CCCCCCCCCc1ccccc1", "strain or isolate": "HT4614", "result": "25 µg/mL"}
{"smiles": "O=C(N/N=C/c1ccc(Br)cc1)c1ccc(CNc2nc3ccccc3[nH]2)cc1", "method": "broth dilution", "result": "50 µg/mL"}
{"smiles": "CCOC(=O)C1C(=O)C=C(c2ccc(Cl)cc2)CC1c1ccc(C2CC(c3ccc(Cl)cc3)=CC(=O)C2C(=O)OCC)cc1", "strain or isolate": "Clinical isolate", "result": "12.5 µg/mL"}
{"smiles": "CO[C@@H]1C(COC(=O)CCC(=O)O)=CC2C(=O)O[C@H]3C[C@@H](C/C=C(\\C)C[C@@H](C)/C=C/C=C4\\CO[C@H]1[C@@]42O)O[C@@]1(CC[C@H](C)[C@@H](C)O1)C3", "strain or isolate": "FA1572", "result": "0.06 µg/mL"}
{"smiles": "Cc1ccc(/C=N/NC(=O)c2ccc(CNc3nc4ccccc4[nH]3)cc2)cc1", "method": "broth dilution", "result": "50 µg/mL"}
{"smiles": "Clc1ccc(C(Cn2ccnc2)NC/C=C/c2ccccc2)cc1", "strain or isolate": "CBS 94 CA 44 CA 48", "result": "50 µg/mL"}
{"smiles": "COc1ccc(N2C(=O)C(O)C2c2ccccc2)cc1", "strain or isolate": "CP/K92", "result": "46.45 µM"}
{"smiles": "Nc1[nH]c(=O)ncc1F", "strain or isolate": "KCCM 50662", "method": "broth dilution", "result": "25 µg/mL"}
{"smiles": "O=C(CCn1ccnc1)c1cccc2ccccc12", "strain or isolate": "RTCC 1095", "method": "broth dilution", "result": "64 µg/mL"}
{"smiles": "CCCCCCCCCCCCCCCCn1cc[n+](C)c1", "strain or isolate": "72P", "method": "broth dilution", "result": "0.014 µg/mL"}
{"smiles": "CCOc1ccc(/C=N/NC(=O)c2ccc(CNc3nc4ccccc4[nH]3)cc2)cc1", "method": "broth dilution", "result": "50 µg/mL"}
{"smiles": "C[C@H]1N(C(=O)c2ccc(C(F)(F)F)cc2)C[C@@H](O)O[C@@]1(Cn1cncn1)c1ccc(F)cc1F", "strain or isolate": "Isolate 1", "result": ">64 µg/mL"}
{"smiles": "O=c1[nH]nc(-c2ccccc2)n1CCCCCCn1c(-c2ccccc2)n[nH]c1=O", "result": "7.5 µg/mL"}
{"smiles": "CCOc1ccc2nc3cc(N=C4NC(=O)/C(=C\\c5ccc([N+](=O)[O-])o5)S4)ccc3c(N)c2c1", "strain or isolate": "ATCC 8302", "method": "broth dilution", "result": "31.3 µg/mL"}
{"smiles": "Clc1ccc(C(Cn2ccnc2)NC/C=C/c2ccccc2)c(Cl)c1", "strain or isolate": "CBS 94 CA 44 CA 47", "result": "50 µg/mL"}
{"smiles": "C[C@H]1[C@H](O)[C@@H](C)/C=C/C=C/C=C/C=C/C=C/C=C/C=C/[C@H](O[C@@H]2O[C@H](C)[C@@H](O)[C@H](N)[C@@H]2O)C[C@@H]2O[C@](O)(C[C@@H](O)C[C@@H](O)CC[C@H](O)[C@@H](O)C[C@@H](O)CC(=O)O[C@H]1C)C[C@H](O)[C@H]2C(=O)O", "strain or isolate": "ATCC 760", "method": "broth dilution", "result": "0.5 µg/mL"}
{"smiles": "Fc1ccc(C(Cn2ccnc2)NCc2ccc(-c3ccccc3)cc2)cc1", "strain or isolate": "CBS 94 CA 44 CA 28", "result": "2.4 µg/mL"}
{"smiles": "N#Cc1ccc(/C=N/NC(=O)c2ccc(CNc3nc4ccccc4[nH]3)cc2)cc1", "method": "broth dilution", "result": "25 µg/mL"}
{"smiles": "C=C1CC(C/C(C)=C/COc2ccc3ccc(=O)oc3c2)OC1=O", "strain or isolate": "MTCC 184", "result": "39 µg/mL"}
{"smiles": "Cn1cccc1-c1n[nH]c(=O)n1CCCCCCn1c(-c2cccn2C)n[nH]c1=O", "result": "7.5 µg/mL"}
{"smiles": "COc1ccc(N2C(=O)C[C@@H](C)C2=O)cc1", "strain or isolate": "CCC 131-2000", "method": "broth dilution / turbidity", "result": "62.5 µg/mL"}
{"smiles": "CCCC[C@@H](C)/C=C(C)/C=C(\\C)C(=O)N/C(=C/[C@@](C)(O)/C=C/C=C/C=C/C(=O)NC1=C(O)CCC1=O)C(=O)[C@@H]1CO1", "strain or isolate": "1", "method": "broth dilution", "result": "13 µM"}
{"smiles": "Cc1ccc(N/N=c2/sc3nnc(-c4ccncc4)n3nc2C)cc1", "strain or isolate": "ATCC 66029", "method": "broth dilution", "result": ">100 µg/mL"}
{"smiles": "O=C1C2=C(OC(CI)C2)C(=O)c2ccccc21", "strain or isolate": "Clinical isolate", "method": "broth dilution", "result": "32 µg/mL"}
{"smiles": "C[C@@H]1CC(=O)N(c2ccc(Cl)cc2)C1=O", "strain or isolate": "CCC 131-2000", "method": "broth dilution / turbidity", "result": "62.5 µg/mL"}
{"smiles": "C[C@@H]([C@H](N)C(=O)N[C@H](C(=O)O)[C@H]1O[C@@H](n2ccc(=O)[nH]c2=O)[C@H](O)[C@@H]1O)[C@H](O)c1ccc(O)cn1", "strain or isolate": "1525", "method": "visual reading", "result": ">500 µg/mL"}
{"smiles": "COC(=O)c1c(N)oc2c(C)c(C)c(O)c(Sc3cccc(C)c3)c12", "strain or isolate": "KCCM 50662", "method": "broth dilution", "result": "25 µg/mL"}
{"smiles": "c1ccc(C(Cn2ccnc2)NCc2cccc3ccccc23)cc1", "strain or isolate": "CBS 94 CA 44 CA 44", "result": "37.7 µg/mL"}
{"smiles": "N=C(N)c1ccc(OCCCCCCOc2ccc(C(=N)N)cc2)cc1", "strain or isolate": "Ct1", "method": "agar diffusion / agar", "result": "22 µg/mL"}
{"smiles": "O=C(CCn1ccnc1)c1cccc(C(O)c2ccc(Br)cc2)c1", "strain or isolate": "RTCC 1065", "method": "broth dilution", "result": ">64 µg/mL"}
{"smiles": "CC(C)(O)c1cn(-c2ccc(Cl)cc2)nn1", "strain or isolate": "URM 4790", "method": "broth dilution", "result": "128 µg/mL"}
{"smiles": "CCN(CC)c1ccc(/C=N/NC(=O)c2ccc(CNc3nc4ccccc4[nH]3)cc2)cc1", "method": "broth dilution", "result": "50 µg/mL"}
{"smiles": "O=C(CCn1ccnc1)c1ccc(-c2ccccc2)cc1", "strain or isolate": "RTCC 1065", "method": "broth dilution", "result": ">64 µg/mL"}
{"smiles": "CC(=O)OC1C(=O)N(c2ccccc2)C1c1ccc([N+](=O)[O-])cc1", "strain or isolate": "CP/K92", "result": "18.4 µM"}
{"smiles": "O=C(N/N=C/c1ccc([N+](=O)[O-])cc1)c1ccc(CNc2nc3ccccc3[nH]2)cc1", "method": "broth dilution", "result": "25 µg/mL"}
{"smiles": "OC(Cn1cncn1)(Cn1cncn1)c1ccc(F)cc1F", "method": "agar", "result": "≥100 µg/mL"}
{"smiles": "CO/N=C/C(C)(C)C(O)(Cn1cncn1)c1ccc(Cl)cc1", "strain or isolate": "53", "method": "visual reading", "result": "1 µg/mL"}
{"smiles": "Clc1ccc(C(Cn2ccnc2)NCc2ccc(-c3ccccc3)cc2)cc1", "strain or isolate": "CBS 94 CA 44 CA 26", "result": "0.87 µg/mL"}
{"smiles": "OC(Cn1cncn1)(Cn1cncn1)c1ccc(F)cc1F", "strain or isolate": "Clinical isolates", "result": "0.811 µg/mL"}
{"smiles": "O=C1c2ccccc2CC1Cn1ccnc1", "strain or isolate": "RTCC 1095", "method": "broth dilution", "result": ">64 µg/mL"}
{"smiles": "O=C1C(O)C2(c3ccccc3)SCCCN12", "strain or isolate": "CP/K92", "result": "106 µM"}
{"smiles": "Cc1nn2c(-c3ccncc3)nnc2s/c1=N/Nc1ccc(F)cc1", "strain or isolate": "ATCC 66029", "method": "broth dilution", "result": "25 µg/mL"}
{"smiles": "CC(=O)OC1C(=O)N2CCCSC12c1ccccc1", "strain or isolate": "CP/K92", "result": "90.25 µM"}
{"smiles": "Clc1ccc(C(Cn2ccnc2)NCc2cccc3ccccc23)cc1", "strain or isolate": "CBS 94 CA 44 CA 33", "result": "47.8 µg/mL"}
{"smiles": "O=C(N/N=C/c1ccc(Cl)cc1)c1ccc(CNc2nc3ccccc3[nH]2)cc1", "method": "broth dilution", "result": "50 µg/mL"}
{"smiles": "CCOC(=O)C1C(=O)C=C(c2ccc(OC)cc2)CC1c1ccc(C2CC(c3ccc(OC)cc3)=CC(=O)C2C(=O)OCC)cc1", "strain or isolate": "Clinical isolate", "result": "12.5 µg/mL"}
{"smiles": "CC1C(=O)N(CCCCc2ccccc2)C(=O)C1C", "strain or isolate": "CCC 131-2000", "method": "broth dilution / turbidity", "result": "125 µg/mL"}
{"smiles": "Cn1cccc1CC(=O)NNC(=O)NCCCCCCNC(=O)NNC(=O)Cc1cccn1C", "result": "7.5 µg/mL"}
{"smiles": "Cc1nn2c(-c3ccncc3)nnc2s/c1=N/Nc1ccc(S(N)(=O)=O)cc1", "strain or isolate": "ATCC 66029", "method": "broth dilution", "result": ">100 µg/mL"}
{"smiles": "CCC(C)CC(C)CCCCCCCCC(=O)N[C@H]1C[C@@H](O)[C@H](NCCN)NC(=O)[C@@H]2[C@@H](O)CCN2C(=O)[C@H]([C@H](O)CCN)NC(=O)[C@H]([C@H](O)[C@@H](O)c2ccc(O)cc2)NC(=O)[C@@H]2C[C@@H](O)CN2C(=O)[C@H]([C@@H](C)O)NC1=O", "strain or isolate": "Isolate 425 (AMB FCZ 5FC-susceptible)", "result": "0.25 µg/mL"}
{"smiles": "OC(CCn1ccnc1)c1ccc(-c2ccccc2)cc1", "strain or isolate": "RTCC 1095", "method": "broth dilution", "result": ">64 µg/mL"}

6 of the rows above, restated:

smiles | strain or isolate | method | result
CCCC[C@@H](C)/C=C(C)/C=C(\C)C(=O)N/C(=C/[C@@](C)(O)/C=C/C=C/C=C/C(=O)NC1=C(O)CCC1=O)C(=O)[C@@H]1CO1 | 1 | broth dilution | 13 µM
CC(=O)OC1C(=O)N2CCCSC12c1ccccc1 | CP/K92 |  | 90.25 µM
CCOC(=O)C1C(=O)C=C(c2ccc(Cl)cc2)CC1c1ccc(C2CC(c3ccc(Cl)cc3)=CC(=O)C2C(=O)OCC)cc1 | Clinical isolate |  | 12.5 µg/mL
C[C@H]1[C@H](O)[C@@H](C)/C=C/C=C/C=C/C=C/C=C/C=C/C=C/[C@H](O[C@@H]2O[C@H](C)[C@@H](O)[C@H](N)[C@@H]2O)C[C@@H]2O[C@](O)(C[C@@H](O)C[C@@H](O)CC[C@H](O)[C@@H](O)C[C@@H](O)CC(=O)O[C@H]1C)C[C@H](O)[C@H]2C(=O)O | ATCC 760 | broth dilution | 0.5 µg/mL
CN1CCC[C@H]1CCCCCCCCCc1ccccc1 | HT4614 |  | 25 µg/mL
O=C1C(O)C2(c3ccccc3)SCCCN12 | CP/K92 |  | 106 µM